A mixed list of measured activities; the numbers were collected in NIAID ChemDB.

Shared fields: toxicity to cultured cells; cell line: VERO; endpoint: CC50

Blank or dashed fields: not listed here. CCn: concentration that lowers growth or viability of the cells by n%. Lines come from different laboratories, so protocols vary. Two numbers with a dash give a range or band.

compound	read by	value
Cc1cn([C@H]2C=C(F)[C@@H](CO)O2)c(=O)[nH]c1=O		>100 µM
CCCCS(=O)(=O)Nc1ccc2[nH]c(C(=O)NC3CCOCC3)c(C)c2c1	resazurin	64 µM
Nc1nc2c(ncn2COCCO)c(=O)o1		1000 µM
Nc1ncnc2c1ncn2[C@@H]1C[C@H](CO)[C@@H](O)[C@H]1O		4 µg/mL
CCCCCCCCCCCCCCC[C@H](O)CCCC[C@H](O)C[C@H]1CC=CC(=O)O1		1.8 µg/mL
CC(=O)O[C@]1(C)/C=C/C[C@@H](C)/C=C/[C@@]2(C)CC[C@@H](C(C)(C)O)[C@@H]2[C@@H](O)C1		189 µM
CCCCCCCCCCCCCC[C@H](O)C[C@H](O)C[C@H](O)C[C@H]1CC=CC(=O)O1		5.61 µg/mL
CCOC(=O)c1[nH]c2ccc(NC(=O)OC(C)(C)C)cc2c1C	resazurin	>160 µM
Cc1cn2c(C(=O)NCc3ccc(N4CCSCC4)c(F)c3)c(C)nc2s1		>32 µM
O=C(O)CP(=O)(O)O		>500 µM
Cc1nc2n(CCCCO)nc(-c3ccccc3)c(=O)n2n1		>980 µM
CCCCS(=O)(=O)Nc1ccc2[nH]c(C(=O)N[C@@H](C)c3ccccc3)c(C)c2c1	resazurin	60.5 µM
Nc1nc2c(ncn2[C@H]2C=C(F)[C@@H](CO)O2)c(=O)[nH]1		>100 µM
CCCCCCCCCCCCCCC[C@H](O)C[C@H](O)C[C@H](O)C[C@H]1CC=CC(=O)O1		8.34 µg/mL
Cc1cn2c(C(=O)NCc3ccc(N4CCN(c5ccc(S(F)(F)(F)(F)F)cc5)CC4)cc3)c(C)nc2s1		2–10 µM
CCCCCc1nc2n(n1)C(c1ccc(OC)cc1)CC(=O)N2		>50 µg/mL
O=C(O)c1c2n(c3cc(N4CCC(N5CCCCC5)CC4)c([N+](=O)[O-])cc3c1=O)CS2	MTT	141 µM
Cc1nc2n(CCO)nc(-c3ccccc3)c(=O)n2n1		1000 µM
CCCCS(=O)(=O)Nc1ccc2[nH]c(C(=O)NCc3ccccc3F)c(C)c2c1	resazurin	>120 µM
CC[C@H](/C=C/[C@@H](C)[C@H]1CC[C@H]2[C@@H]3CC=C4C[C@@H](O)CC[C@]4(C)[C@H]3CC[C@]12C)C(C)C		>102 µg/mL
CCOC(=O)c1c([N+](=O)[O-])c(-c2ccccc2)n(COCCO)c1-c1ccccc1		163 µM
COc1ccc(C2CC(=O)Nc3nc(-c4ccc5ccccc5c4)nn32)cc1		>50 µg/mL
CCn1cc(C(=O)O)c(=O)c2cc(F)c(N3CCN(C(=O)Cc4ccccc4Nc4c(Cl)cccc4Cl)CC3)cc21		>16.73 µM
CC(C)(C)OC(=O)NC1C2CN(c3cc4c(cc3[N+](=O)[O-])c(=O)c(C(=O)O)c3n4CS3)CC21	MTT	65.86 µM
CC[C@@H](C(C)C)[C@@H](O)[C@H](O)[C@@H](C)[C@H]1CC[C@H]2[C@@H]3CC(=O)[C@H]4C[C@H](O)[C@H](O)C[C@]4(C)[C@H]3CC[C@]12C	MTT	209 µM
O=C(O)c1cn2c(n1)CN(c1cc3c(cc1[N+](=O)[O-])c(=O)c(C(=O)O)c1n3CS1)CC2	MTT	141 µM
CC1CN(c2cc3c(=O)c(C(=O)O)c4n(c3cc2[N+](=O)[O-])CS4)CC(C)O1	MTT	79.84 µM
CCc1nc2ccccc2n1CCCCNc1ccc(OC)cc1	luminescence	>100 µM
CCCCS(=O)(=O)Nc1ccc2[nH]c(C(=O)N3CCCC3)c(C)c2c1	resazurin	>140 µM
COc1cc2c(cc1OC)CN(c1cc3c(=O)c(C(=O)O)c4n(c3cc1[N+](=O)[O-])CS4)CC2	MTT	66.56 µM
Cc1ccc2nc(C)c(C(=O)NCc3ccc4c(c3)CCO4)n2c1		>32 µM
O=C(O)c1c2n(c3cc(F)c(N4CCC(n5c(=O)[nH]c6ccc(Cl)cc65)CC4)cc3c1=O)CS2	MTT	>125 µM
Nc1nc2c(ncn2[C@@H]2O[C@H](CO)[C@@H](O)[C@H]2O)c(=O)o1		680 µM
C[C@]12CC[C@@H]3c4ccc(OCC#Cc5cn([C@H]6C[C@H](O)[C@@H](CO)O6)c(=O)[nH]c5=O)cc4CC[C@H]3[C@@H]1CCC2=O	MTT	150 µM
Cc1c(C#N)[nH]c2ccc(N3CCCC3)cc12	resazurin	220 µM
Cn1cnc2c(NC(=O)c3ccc(C(F)(F)F)cc3)nc(Cl)cc21	MTT	162 µM
O=c1c(-c2ccccc2)cn(CCCCO)c2ncnn12		>800 µM
COc1cc(NS(C)(=O)=O)ccc1Nc1c2ccccc2nc2ccccc12		3 µM
Cc1cn2c(C(=O)NCc3ccc(N4CCN(c5ccc(C(F)(F)F)cn5)CC4)c(F)c3)c(C)nc2s1		>32 µM
Nc1ccn([C@@H]2C=C(F)[C@H](CO)O2)c(=O)n1		>100 µM
CCc1nc2ccc(Cl)cn2c1C(=O)NCc1ccc(N2CCC3(CC2)OC[C@H](C)O3)c(F)c1		>32 µM
CCCc1nc2n(n1)C(c1ccccc1)CC(=O)N2		>50 µg/mL
COc1ccc(CCNC(=O)c2c(C)n([O-])c3ccc(C(F)(F)F)cc3[n+]2=O)cc1		>100 µg/mL
O=C(Cc1ccccc1Nc1c(Cl)cccc1Cl)N/N=C/c1ccccc1[N+](=O)[O-]		>22.62 µM
CC1CN(c2cc3c(cc2F)c(=O)c(C(=O)O)c2n3CS2)CC(C)O1	MTT	>172 µM
CC1CN(c2cc3c(=O)c(C(=O)O)c4n(c3cc2F)CS4)CC(C)O1	MTT	>172 µM
Cc1noc(-c2nc(C)c3c(c2N)C(=O)N(Cc2cccc(Cl)c2)C3=O)n1	MTT	>100 µM
CC[C@H](/C=C/[C@@H](C)[C@H]1CC[C@H]2[C@@H]3CC=C4C[C@@H](O)CC[C@]4(C)[C@H]3CC[C@]12C)C(C)C	MTT	479 µM
O=c1ccn([C@H]2C=C(F)[C@@H](CO)O2)c(=O)[nH]1		>100 µM
CCCCS(=O)(=O)Nc1ccc2[nH]c(C(=O)NC3CCCC3)c(C)c2c1	resazurin	>130 µM
COc1ccc(/C=N/N=C(\N)NO)cc1.Cc1ccc(S(=O)(=O)O)cc1		25 µM
CC[C@H](/C=C/[C@@H](C)[C@H]1CC[C@H]2[C@@H]3C(=O)C=C4C[C@@H](O)CC[C@]4(C)[C@H]3CC[C@]12C)C(C)C		>102 µg/mL
O=C(O)c1c2n(c3cc(F)c(N4CCN(Cc5ccc6c(c5)OCO6)CC4)cc3c1=O)CS2	MTT	>133 µM
Cc1ccn2c(C(=O)NCc3ccnc(N4CCC(c5ccc(C(F)(F)F)cc5)CC4)c3)c(C)nc2c1		>32 µM
COc1cc2c(cc1OC)CN(c1cc3c(=O)c(C(=O)O)c4n(c3cc1F)CS4)CC2	MTT	141 µM
CC[C@H](CC[C@@H](C)[C@H]1CC[C@H]2[C@@H]3C(=O)C=C4C[C@@H](O)CC[C@]4(C)[C@H]3CC[C@]12C)C(C)C		>102 µg/mL
Nc1nc2c(ncn2[C@@H]2C=C(F)[C@H](CO)O2)c(=O)[nH]1		>100 µM
COc1cc(OC)c(OC)cc1/C=N/N=C(/N)NO.Cc1ccc(S(=O)(=O)O)cc1		100 µM
CCc1nc2ccc(Cl)cn2c1C(=O)NCc1ccc(N2CCC(c3ccc(OC(F)(F)F)cc3)CC2)cc1		>32 µM
Nc1ncnc2c1ncn2[C@H]1C[C@@H](CO)[C@H](O)[C@@H]1O		>400 µg/mL
CCCCS(=O)(=O)Nc1ccc2[nH]c(C(=O)O)c(C)c2c1	resazurin	>160 µM
O=C(Cc1ccccc1Nc1c(Cl)cccc1Cl)N/N=C/c1ccc([N+](=O)[O-])cc1		>22.62 µM
O=C(O)c1c2n(c3cc(N4CCSCC4)c(F)cc3c1=O)CS2	MTT	177 µM
CC(C)(C)OC(=O)NC1C2CN(c3cc4c(=O)c(C(=O)O)c5n(c4cc3[N+](=O)[O-])CS5)CC21	MTT	65.86 µM
O=C1CC(c2ccc([N+](=O)[O-])cc2)n2nc(-c3ccncc3)nc2N1		>50 µg/mL
Cc1ccc2nc(C)c(C(=O)NCc3ccc(N4CCS(=O)(=O)CC4)cc3)n2c1		>32 µM
O=c1c(-c2ccccc2)nn(COCCO)c2ncnn12		500 µM
CCCCCCCCCCCCCCC[C@H](O)CCC[C@H]1CC=CC(=O)O1		2.88 µg/mL
[N-]=[N+]=Nc1c(-c2ccccc2)c(-c2ccccc2)n(COCCO)c1-c1ccccc1		65 µM
O=C1CC(c2ccc([N+](=O)[O-])cc2)n2nc(-c3cccnc3)nc2N1		>50 µg/mL
CCCCCCCCCCCCCCC[C@H](O)CC[C@@H](O)CCC[C@H]1CC=CC(=O)O1		0.8 µg/mL
O=C(O)c1c2n(c3cc([N+](=O)[O-])c(N4CCC(n5c(=O)[nH]c6ccc(Cl)cc65)CC4)cc3c1=O)CS2	MTT	188 µM
COc1cc2c(cc1OC)CN(c1cc3c(cc1F)c(=O)c(C(=O)O)c1n3CS1)CC2	MTT	141 µM
COc1cc(/C=N/NC(=O)Cc2ccccc2Nc2c(Cl)cccc2Cl)ccc1O		>22.56 µM
CC(=O)OCCOCn1c(-c2ccccc2)c(Br)c(Br)c1-c1ccccc1		23 µM
Nc1ccn(C[C@@H](CO)OCP(=O)(O)O)c(=O)n1		92 µg/mL
CCOC(=O)c1c([N+](=O)[O-])c(-c2ccccc2)n(COCCOC(C)=O)c1-c1ccccc1		96 µM
CSc1nc2n(CCCCO)nc(-c3ccccc3)c(=O)n2n1		>500 µM
CC[C@@]1(O)C[C@H](O[C@H]2C[C@H](N(C)C)[C@H](O[C@H]3C[C@H](O)[C@H](O[C@H]4CCC(=O)[C@H](C)O4)[C@H](C)O3)[C@H](C)O2)c2c(cc3c(c2O)C(=O)c2c(O)cccc2C3=O)[C@H]1C(=O)OC		0.01 µM

The last 11 rows once more:

| compound | read by | value |
|---|---|---|
| [N-]=[N+]=Nc1c(-c2ccccc2)c(-c2ccccc2)n(COCCO)c1-c1ccccc1 |  | 65 µM |
| O=C1CC(c2ccc([N+](=O)[O-])cc2)n2nc(-c3cccnc3)nc2N1 |  | >50 µg/mL |
| CCCCCCCCCCCCCCC[C@H](O)CC[C@@H](O)CCC[C@H]1CC=CC(=O)O1 |  | 0.8 µg/mL |
| O=C(O)c1c2n(c3cc([N+](=O)[O-])c(N4CCC(n5c(=O)[nH]c6ccc(Cl)cc65)CC4)cc3c1=O)CS2 | MTT | 188 µM |
| COc1cc2c(cc1OC)CN(c1cc3c(cc1F)c(=O)c(C(=O)O)c1n3CS1)CC2 | MTT | 141 µM |
| COc1cc(/C=N/NC(=O)Cc2ccccc2Nc2c(Cl)cccc2Cl)ccc1O |  | >22.56 µM |
| CC(=O)OCCOCn1c(-c2ccccc2)c(Br)c(Br)c1-c1ccccc1 |  | 23 µM |
| Nc1ccn(C[C@@H](CO)OCP(=O)(O)O)c(=O)n1 |  | 92 µg/mL |
| CCOC(=O)c1c([N+](=O)[O-])c(-c2ccccc2)n(COCCOC(C)=O)c1-c1ccccc1 |  | 96 µM |
| CSc1nc2n(CCCCO)nc(-c3ccccc3)c(=O)n2n1 |  | >500 µM |
| CC[C@@]1(O)C[C@H](O[C@H]2C[C@H](N(C)C)[C@H](O[C@H]3C[C@H](O)[C@H](O[C@H]4CCC(=O)[C@H](C)O4)[C@H](C)O3)[C@H](C)O2)c2c(cc3c(c2O)C(=O)c2c(O)cccc2C3=O)[C@H]1C(=O)OC |  | 0.01 µM |